# Only a part is listed here, and it is no random draw. The source made the active and inactive calls.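 The calls were made as follows: active = growth inhibition above about 50% at one test dose (limit read from the data); inactive = the rest.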
# Assay: growth inhibitors of wild-type E. coli, primary screen, strain BW25113, expanded library, OD600 (AID 710);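 also: growth measured after 20 h incubation at 37 °C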
# Settings: OD600 absorbance, at 100 µM, hits give high values
row,SMILES,growth inhibition
1,O=C(NCC1(N2CCOCC2)CCCCC1)c1cc(=O)[nH]c2ccccc12,inactive: -6%
2,N#CC1(Nc2ccccc2)CCN(CCc2ccccc2)CC1,inactive: -1%
3,O=C(NCC1(N2CCOCC2)CCCCC1)c1cc2ccccc2o1,inactive: 0%
4,O=C(OC1CN2CCC1CC2)C1c2ccccc2Oc2ccccc21 (centres undefined),inactive: 8%
5,COc1ccc(NC2CCN(CCc3ccccc3)CC2)c(OC)c1,inactive: -2%
6,CCC(CO)(C(=O)OC1CN2CCC1CC2)c1ccccc1 (centres undefined),inactive: 0%
7,CCOc1ncccc1C(=O)NCC1(N2CCOCC2)CCCCC1,inactive: -3%
8,N/C(=N\O)c1c(N)no[n+]1[O-],inactive: -6%
9,c1ccc(CN2CCC(Nc3ccccc3)CC2)cc1,inactive: 5%

# — PubChem BioAssay AID710 (SRMLSC, 2007)
